Test results reported in patent USRE37781E1, “Substituted cyclic carbonyls and derivatives thereof useful as retroviral protease inhibitors” (DuPont Pharmaceuticals Company, priority 1991, dated 2002).

How the values were obtained:
HIV protease = HIV protease (Human immunodeficiency virus type 1 group M subtype B, UniProt P04585)
[1] = target: single-chain tethered dimer of HIV protease (Human immunodeficiency virus 1, UniProt P04585); details: HIV protease inhibition
[2] = tested on: HIV-1 infected human CEM lymphcyte cells xenotransplanted in nude mice; assay: HIV-1/CEM Mouse Xenotransplant Animal Model; format: in vivo, nude (nu/nu) mice
HIV-1 protease = assay: HIV-1 Protease Transgenic Mouse Model (cataract phenotype); details: Tg 72 mouse
[3] = read-out: HPLC K1, HPLC method, Table 2d

COCCOCCN1C(=O)N(CCOCCOC)[C@H](Cc2ccccc2)[C@H](O)[C@@H](O)[C@H]1Cc1ccccc1
Ki (HIV protease; Table 1a): > 1 µM

O=C1N(Cc2cccc(O)c2)[C@H](Cc2ccccc2)[C@H](O)[C@@H](O)[C@@H](Cc2ccccc2)N1Cc1cccc(O)c1
Ki ([1]; class symbols): < 0.01 µM | IFA ([2]; 30 mg/kg bid ip): 116.7% of the control untreated levels | p24 E1A ([2]; 30 mg/kg bid ip): 61.5% of the control untreated levels | IFA ([2]; 100 mg/kg bid ip): 111.3% of the control untreated levels | p24 E1A ([2]; 100 mg/kg bid ip): 76.4% of the control untreated levels | IFA ([2]; 300 mg/kg bid ip): 51.5% of the control untreated levels | p24 E1A ([2]; 300 mg/kg bid ip): 37.8% of the control untreated levels | Delay in Cataract (relative to control) (HIV-1 protease; 50 mg/kg bid ip days 15-20/po days 21 & ff): 3.6 days | Delay in Cataract (relative to control) (HIV-1 protease; 80 mg/kg bid ip days 15-19/po days 20 & ff): 6 days | IC90 (HIV-1 (RF) in MT-2 cells; HIV RNA assay, HIV-1 infected MT-2 cells, class symbols): +++ (+++=<10 μg/mL)

O=C1N(CC2=CCSC2)[C@H](Cc2ccccc2)[C@H](O)[C@@H](O)[C@@H](Cc2ccccc2)N1CC1=CCSC1
Ki [1, 3]: 0.01 to 1 µM

O=C1N(Cc2ccco2)[C@H](Cc2ccccc2)[C@H](O)[C@@H](O)[C@@H](Cc2ccccc2)N1Cc1ccco1
Ki [1, 3]: < 0.01 µM

O=C1N(Cc2ccsc2)[C@H](Cc2ccccc2)[C@H](O)[C@@H](O)[C@@H](Cc2ccccc2)N1Cc1ccsc1
Ki [1, 3]: < 0.01 µM

N#Cc1cc(CN2C(=O)N(CC3CC3)[C@H](Cc3ccccc3)[C@H](O)[C@@H](O)[C@H]2Cc2ccccc2)ccc1F
Ki ([1]; read-out: HPLC K1, Table 2d, HPLC method): 0.01 to 1 µM

O=C1N(Cc2cccc(CO)c2)C(CCc2ccccc2)C(O)C(Cc2ccccc2)N1Cc1cccc(CO)c1 (centres unmarked)
Ki (HIV protease; Table 1e): 0.01 to 1 µM | IC90 (HIV-1 (RF) in MT-2 cells; Table 1e): + (+=>100 μg/mL)

Where two headings read alike, the source gives them in different places. Structures were worked out from names or drawings and are uncertain.
